Measured values from several laboratories, pooled; numbers as filed in NIAID ChemDB.

Common to all: whole-cell or culture tests; species: HIV-2; read by: syncytia; read-out: EC50

ECn: concentration that inhibits the pathogen or its effect by n%. Lines come from different laboratories, so protocols vary. Blank or dashed fields: not listed here.

compound	strain or isolate	setting	cell line	result
Nc1cc(OC[C@H]2CC[C@@H](CO)O2)nc(N)n1	ROD		CEM	>250 µM
COc1cc(CS(=O)(=O)c2cccc[n+]2[O-])ccc1OCc1ccccc1	ROD		CEM + CEM-SS	>4 µg/mL
CSS[C@H]1C[C@H](n2cc(C)c(=O)[nH]c2=O)O[C@@H]1CO	ROD		CEM	37 µM
CN[C@H](CC(C)C)C(=O)N[C@H]1C(=O)N[C@@H](CC(N)=O)C(=O)N[C@H]2C(=O)N[C@H]3C(=O)N[C@H](C(=O)N[C@H](C(=O)O)c4cc(O)cc(O)c4-c4cc3ccc4O)[C@H](O)c3ccc(c(Cl)c3)Oc3cc2cc(c3O[C@@H]2O[C@H](CO)[C@@H](O)[C@H](O)[C@H]2O[C@H]2C[C@](C)(N)[C@H](O)[C@H](C)O2)Oc2ccc(cc2Cl)[C@H]1O			CEM	22 µM
O=C(O)C(O[C@@H]1C=C[C@H](n2cc(F)c(=O)[nH]c2=O)C1)P(=O)(O)O	ROD		CEM	>250 µM
CC(C)(C)C(=O)OC[C@@H]1C=C[C@H](n2cc(Cl)c(=O)[nH]c2=O)O1	ROD		CEM + CEM TK-	≥50 µM
CSC1=NS(=O)(=O)N([C@@H]2O[C@H](COC(C)=O)[C@@H](OC(C)=O)[C@H]2OC(C)=O)C(=O)N1	ROD		CEM + CEM-SS	>200 µg/mL
Cc1cn([C@H]2C[C@H](N=[N+]=[N-])[C@@H](CO)O2)c(=O)[nH]c1=O	ROD		C8166	0.01534 µM
N#C/C(=C\c1ccccc1)Sc1ccccc1O	ROD		CEM + CEM-SS	>4 µg/mL
O=c1[nH]c2ccc(Cc3cccc(F)c3)cc2s1	ROD		CEM	>1.6 µg/mL
CCCCCCCCCCCC(=O)Oc1ccc(COP(=O)(OCc2ccc(OC(C)=O)cc2)OP(=O)(O)OCC2C=C[C@H](n3cc(C)c(=O)[nH]c3=O)O2)cc1	ROD		CEM	1.05 µM
Nc1nc(N)n(CCOCP(=O)(O)O)c(=O)c1CC(=O)O	ROD		CEM	≥300 µM
COc1cc(OC[C@H]2CC[C@@H](COCc3ccccc3)O2)ncn1	ROD		CEM	>10 µM
Cc1cn(C2OC(CO[Si](C)(C)C(C)(C)C)C3(OS(=O)(=O)C=C3N)C2O[Si](C)(C)C(C)(C)C)c(=O)n(CCCNC(=O)c2ccc(N=[N+]=[N-])cc2O)c1=O	ROD		CEM	>50 µM
O=C(c1cccc(Cl)c1)c1ccc2[nH]c(=O)sc2c1	ROD		CEM	>1.6 µg/mL
CC(C)C(=O)Oc1ccc(COP(=O)(OCc2ccc(OC(=O)C(C)C)cc2)OP(=O)([O-])OC[C@@H]2C=C[C@H](n3ccc(=O)[nH]c3=O)O2)cc1	ROD		CEM	23 µM
CCc1nc([N+](=O)[O-])c(N2CCN(C(=O)c3cccs3)CC2)n1Cc1ccccc1	ROD		MT-4	>54.8 µg/mL
Cc1cn([C@@H]2OC(O[Si](C)(C)C(C)(C)C)C3(OS(=O)(=O)C=C3NCCC(=O)OCc3ccccc3)C2O[Si](C)(C)C(C)(C)C)c(=O)n(C)c1=O	ROD		CEM	>250 µM
Cc1cn([C@H]2C[C@H](N=[N+]=[N-])[C@@H](CO)O2)c(=O)[nH]c1=O	ROD		CEM	0.004 µM
NC1=NS(=O)(=O)N(Cc2ccccc2)c2nc[nH]c21	ROD		CEM	>100 µg/mL
O=C(O)Cc1cc(O)ccc1O	ROD		MOLT-4	4 µg/mL
C[C@H](Cn1cnc2c(N)ncnc21)OCP(=O)(O)O	ROD		CEM	1.3 µM
CCCCCCCCCC(=O)Oc1ccc(COP(=O)(OCc2ccc(OC(=O)CCCCCCCCC)cc2)OP(=O)([O-])OC[C@@H]2C=C[C@H](n3ccc(=O)[nH]c3=O)O2)cc1	ROD		CEM/TK-	>10 µM
Nc1nc(N)c(CC(=O)O)c(OCCOCP(=O)(O)O)n1	ROD		CEM	≥300 µM
CCCCCCCCCC[N+](C)(C)CCCNCc1c(O)cc2c(c1O)-c1cc(ccc1O)[C@H]1NC(=O)[C@@H]3NC(=O)C4NC(=O)[C@@H](Cc5ccc(c(Cl)c5)Oc5cc3cc(c5O)Oc3ccc(cc3Cl)[C@@H](O)[C@H](NC1=O)C(=O)N[C@@H]2C(=O)O)NC(=O)[C@H](N)c1ccc(O)c(c1)Oc1cc(O)cc4c1	RF		CEM	3.7 µM
COc1ccc(OP(=O)(N[C@@H](C)C(=O)OCc2ccccc2)OC[C@@H]2CCC(n3ccc(=O)[nH]c3=O)O2)c2ccccc12	ROD		CEM	21 µM
OC[C@H]1O[C@@H](c2cc(Cl)c(F)cc2F)C[C@@H]1O	ROD		CEM	>250 µM
O=C(O)c1ccc(-c2c3nc(c(-c4ccc(C(=O)O)cc4)c4ccc([nH]4)c(-c4ccc(C(=O)O)cc4)c4nc(c(-c5ccc(C(=O)O)cc5)c5ccc2[nH]5)C=C4)C=C3)cc1	ROD		HuT-78 + HUT 78	59 µg/mL
CN(C)c1cccc(C(=O)c2ccc3c(c2)sc(=O)n3C)c1	ROD		CEM	>8 µg/mL
Cc1cn([C@H]2C=C[C@@H](CO)O2)c(=O)[nH]c1=O	ROD		CEM	0.77 µM
CCc1nc([N+](=O)[O-])c(N2CCN(C(=O)CSC)CC2)n1Cc1ccccc1.c1ccc2ccccc2c1	ROD		MT-4	>3.99 µg/mL
Nc1cc(OC[C@H](CO)OCP(=O)(O)O)nc(N)n1	ROD		CEM	14 µM
CCc1nc([N+](=O)[O-])c(N2CCN(C(=O)CCc3c[nH]c4ccccc34)CC2)n1Cc1ccccc1	ROD		MT-4	>15.4 µg/mL
O=c1[nH]c(=O)n([C@H]2C=C[C@@H](CO)O2)cc1I	ROD		CEM + CEM/0	>50 µM
Cc1cn(C2OC(CO[Si](C)(C)C(C)(C)C)C3(OS(=O)(=O)C=C3N)C2O[Si](C)(C)C(C)(C)C)c(=O)n(CC2CO2)c1=O	ROD		CEM	>50 µM
CNc1nc(=O)n([C@@H]2O[C@H](CO[Si](C)(C)C(C)(C)C)C3(OS(=O)(=O)C=C3N)[C@H]2O[Si](C)(C)C(C)(C)C)cc1C			CEM	>33 µM
Nc1nc(N)c(-c2ccccc2)c(OCCOCP(=O)(O)O)n1	ROD		CEM	≥300 µM
CC(C)(C)C(=O)OC[C@@H]1C=C[C@H](n2cc(I)c(=O)[nH]c2=O)O1	ROD		CEM + CEM/0	>10 µM
Cc1cc(CS(=O)(=O)c2cccc[n+]2[O-])c(C)cc1CS(O)(O)c1ccc[n+]([O-])c1	ROD		CEM + CEM-SS	≥20 µg/mL
O=C(O)c1cc(C(c2ccc(O)c(C(=O)O)c2)c2ccc(O)c(C(=O)O)c2)ccc1O	ROD		MOLT-4/HUT-78	10 µg/mL
O=c1ccn([C@H]2C=C[C@@H](CO)O2)c(=O)[nH]1	ROD		CEM	>250 µM
Nc1nc(N)n(CCOCP(=O)(O)O)c(=O)c1C1CC1	ROD		CEM	≥300 µM
O=C1C=CC(=C(c2ccc(O)cc2)c2ccc(O)cc2)C=C1	ROD		MOLT-4	>100 µg/mL
O=c1[nH]c2ccc(Cc3ccc(F)cc3)cc2o1	ROD		CEM	>8 µg/mL
Cc1cc(O)ccc1O	ROD		MOLT-4	22 µg/mL
Nc1nc(N)c2nn(C[C@@H](CF)OCP(=O)(O)O)nc2n1			CEM	55 µg/mL
Nc1cc(OC[C@H]2CC[C@@H](CO)O2)ncn1	ROD		CEM	>250 µM
CC(C)CCC[C@@H](C)[C@H]1CC[C@H]2[C@@H]3CC[C@H]4C[C@@H](CCC=C(c5cc(Cl)c(O)c(C(=O)O)c5)c5cc(Cl)c(O)c(C(=O)O)c5)CC[C@]4(C)[C@H]3CC[C@]12C	ROD		HuT-78 + HUT 78	25 µg/mL
Nc1nc(OC[C@H]2CC[C@@H](CO)O2)c2[nH]cnc2n1	ROD		CEM	>250 µM
NC1=NS(=O)(=O)N(Cc2ccccc2)c2nc(-c3ccc(Cl)cc3)[nH]c21	ROD		CEM	>4 µg/mL
CC(C)(C)[Si](C)(C)OC[C@H]1O[C@@H](n2cc(I)c(=O)[nH]c2=O)[C@H](O[Si](C)(C)C(C)(C)C)C12OS(=O)(=O)C=C2N			CEM	>5.7 µM
Cc1cccc(O)c1O	ROD		MOLT-4	24 µg/mL
CCCCCCCCCC(=O)Oc1ccc(COP(=O)(OCc2ccc(OC(C)=O)cc2)OP(=O)(O)OCC2C=C[C@H](n3cc(C)c(=O)[nH]c3=O)O2)cc1	ROD		CEM	1.05 µM
CC(C)OC(=O)[C@H](C)NP(=O)(OC[C@@H]1C=CC(n2ccc(=O)[nH]c2=O)O1)Oc1ccccc1	ROD		CEM	>250 µM
CC(=O)Oc1ccc(COP(=O)(OCc2ccc(OC(=O)c3ccc(C)cc3)cc2)OP(=O)(O)OCC2C=C[C@H](n3cc(C)c(=O)[nH]c3=O)O2)cc1	ROD		CEM/TK-	6.31 µM
COc1cc(OC[C@H]2CC[C@@H](COCc3ccccc3)O2)nc(N)n1	ROD		CEM	>10 µM
CSC1=NS(=O)(=O)N([C@@H]2O[C@H](COC(=O)c3ccccc3)[C@@H](OC(=O)c3ccccc3)[C@H]2OC(=O)c2ccccc2)C(=O)N1	ROD		CEM + CEM-SS	>40 µg/mL
O=C(O)c1cc(C(O)(c2ccc(O)c(C(=O)O)c2)c2ccc(O)c(C(=O)O)c2)ccc1O	ROD		MOLT-4/HUT-78	40 µg/mL
CC(C)C(=O)Oc1ccc(COP(=O)(OCc2ccc(OC(=O)C(C)C)cc2)OP(=O)([O-])OC[C@@H]2CC[C@H](n3ccc(=O)[nH]c3=O)O2)cc1	ROD		CEM	>50 µM
O=S(=O)(O)c1cc(Cl)cc(Cc2cc(Cl)cc(S(=O)(=O)O)c2O)c1O			MOLT-4/HUT-78	>100 µg/mL
O=C(O)c1ccc(O)c(O)c1	ROD		MOLT-4	5 µg/mL
CCc1nc([N+](=O)[O-])c(N2CCN(C(=O)c3ccc(Cl)cc3Cl)CC2)n1Cc1ccccc1	ROD		MT-4	>14.5 µg/mL
Nc1nc(N)c(Cl)c(OCCOCP(=O)(O)O)n1	ROD		CEM	4.4 µM
Nc1cc(OC[C@H]2CC[C@@H](COCc3ccccc3)O2)nc(N)n1	ROD		CEM	>250 µM
CCc1nc([N+](=O)[O-])c(N2CCN(C(=O)c3ccc(Cl)cc3)CC2)n1Cc1ccccc1	ROD		MT-4	>22.5 µg/mL
Cc1cn(C2OC(CO[Si](C)(C)C(C)(C)C)C3(OS(=O)(=O)C=C3N)C2O[Si](C)(C)C(C)(C)C)c(=O)n(/C=C/CO)c1=O	ROD		CEM	>2 µM
O=C(c1cccc(I)c1)c1ccc2[nH]c(=O)sc2c1	ROD		CEM	>8 µg/mL
Nc1nc2c(nc(Br)n2CCOCP(=O)(O)O)c(=O)[nH]1		4 d	CEM	>0.16 µg/mL
CCc1nc([N+](=O)[O-])c(N2CCN(C(=O)CSc3ccccc3)CC2)n1Cc1ccccc1	ROD		MT-4	>2.74 µg/mL
CCCCCCCCCC[N+](C)(C)CCCNCc1c(O)cc2c(c1O)-c1cc(ccc1O)[C@H]1NC(=O)[C@@H]3NC(=O)C4NC(=O)[C@@H](Cc5ccc(c(Cl)c5)Oc5cc3cc(c5O)Oc3ccc(cc3Cl)[C@@H](O)[C@H](NC1=O)C(=O)N[C@@H]2C(=O)O)NC(=O)[C@H](N)c1ccc(O)c(c1)Oc1cc(O)cc4c1	EHO		CEM	6.8 µM
O=C(c1ccccc1)c1ccc2c(c1)oc(=O)n2CCN1CCCCC1	ROD		CEM	>8 µg/mL
CCOC(=O)[C@H](C)NP(=O)(OC[C@@H]1C=CC(n2ccc(=O)[nH]c2=O)O1)Oc1cccc2ccccc12	ROD		CEM	>50 µM
C[C@H](Cn1cnc2c(N)ncnc21)OCP(=O)(O)O	ROD		CEM	2.5 µM

The last 10 rows once more:

compound,strain or isolate,setting,cell line,result
Nc1cc(OC[C@H]2CC[C@@H](COCc3ccccc3)O2)nc(N)n1,ROD,,CEM,>250 µM
CCc1nc([N+](=O)[O-])c(N2CCN(C(=O)c3ccc(Cl)cc3)CC2)n1Cc1ccccc1,ROD,,MT-4,>22.5 µg/mL
Cc1cn(C2OC(CO[Si](C)(C)C(C)(C)C)C3(OS(=O)(=O)C=C3N)C2O[Si](C)(C)C(C)(C)C)c(=O)n(/C=C/CO)c1=O,ROD,,CEM,>2 µM
O=C(c1cccc(I)c1)c1ccc2[nH]c(=O)sc2c1,ROD,,CEM,>8 µg/mL
Nc1nc2c(nc(Br)n2CCOCP(=O)(O)O)c(=O)[nH]1,,4 d,CEM,>0.16 µg/mL
CCc1nc([N+](=O)[O-])c(N2CCN(C(=O)CSc3ccccc3)CC2)n1Cc1ccccc1,ROD,,MT-4,>2.74 µg/mL
CCCCCCCCCC[N+](C)(C)CCCNCc1c(O)cc2c(c1O)-c1cc(ccc1O)[C@H]1NC(=O)[C@@H]3NC(=O)C4NC(=O)[C@@H](Cc5ccc(c(Cl)c5)Oc5cc3cc(c5O)Oc3ccc(cc3Cl)[C@@H](O)[C@H](NC1=O)C(=O)N[C@@H]2C(=O)O)NC(=O)[C@H](N)c1ccc(O)c(c1)Oc1cc(O)cc4c1,EHO,,CEM,6.8 µM
O=C(c1ccccc1)c1ccc2c(c1)oc(=O)n2CCN1CCCCC1,ROD,,CEM,>8 µg/mL
CCOC(=O)[C@H](C)NP(=O)(OC[C@@H]1C=CC(n2ccc(=O)[nH]c2=O)O1)Oc1cccc2ccccc12,ROD,,CEM,>50 µM
C[C@H](Cn1cnc2c(N)ncnc21)OCP(=O)(O)O,ROD,,CEM,2.5 µM